Among the data in PMC6630910 (Pharmaceuticals, 2019) are IC50 values, retold here.

Protein sequences, listed by entry. Tags and fused reporters are not part of them. Lines headed by an entry give the natural chain unless they say otherwise; changes in a name come on top.
UniProt P0CAS1: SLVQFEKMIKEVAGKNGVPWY

SMILES strings stand for the structures.

By IC50 is commonly meant the concentration needed to halve the response being measured.

This assay deals with phospholipase A2 (Cdcum6) (Crotalus durissus cumanensis, UniProt P0CAS1). Kind of assay: Inhibition of PLA2 activity using 4-nitro-3-octanoyloxybenzoic acid (4N3OBA) as monodispersed substrate. Particulars: read-out: IC50 Value for Inhibition of PLA2 Activity; 4N3OBA substrate; enzyme co-incubated with compound 30 min at 37 °C.
Consider `CCOC(=O)CSC(=O)c1cccc([N+](=O)[O-])c1` [II, Ethyl 2-((3-nitrobenzoyl)thio)acetate], for which the IC50 amounted to 305 µM.
For `CCOC(=O)CSC(=O)c1ccc([N+](=O)[O-])cc1` [III, Ethyl 2-((4-nitrobenzoyl)thio)acetate] the value was 133 µM.
Regarding `CCOC(=O)CSC(=O)c1ccc(Cl)cc1` [Compound I, Ethyl 2-((4-chlorobenzoyl)thio)acetate], the IC50 is 193 µM.
